Data as given in PubChem BioAssay AID1259414 (Drosophila RNAi Screening Center, 2018)

Purpose: 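Host factors increasing or decreasing Wolbachia levels in cultured fly cells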 (primary screen)
Cells: Drosophila JW18 cells infected with Wolbachia
Reagents: long dsRNA against Drosophila genes, 0.25 µg dsRNA per well of a 384-well plate
Duration: 5 days
Treatment: cells persistently infected with Wolbachia before knock-down; no added drug
Measurement: 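Automated imaging of bacterial rRNA staining divided by host cell count, reported as plate-normalised robust z-score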
Scale: Wolbachia per cell robust z: higher = more Wolbachia per host cell than the plate typical
Active means: 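Active if absolute robust z reaches 1.5 in two or more of three replicates, leaving out multi- or no-target dsRNAs, genes unexpressed in JW18 and A1 wells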
The screen tested about 24,000 reagents; this is an unselected part of those with a known target gene and a result. Over the whole deposit, about 1,210 (5%) were called active. 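Inactive calls also include excluded dsRNAs with several or no targets, genes unexpressed in JW18, and well A1, regardless of score.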

For Dscam4 (Down syndrome cell adhesion molecule 4) [DRSC08913], the values are Wolbachia per cell robust z, rep 1 = -1.74; Wolbachia per cell robust z, rep 2 = -4.93; Wolbachia per cell robust z, rep 3 = -0.437; inactive.
Depletion of Dscam4 (Down syndrome cell adhesion molecule 4) [DRSC10031] gave: Wolbachia per cell robust z, rep 1 = 0.0269; Wolbachia per cell robust z, rep 2 = -0.26; Wolbachia per cell robust z, rep 3 = -0.277; inactive.
Dscam4 (Down syndrome cell adhesion molecule 4) [DRSC10329] scored Wolbachia per cell robust z, rep 1 = 0.242; Wolbachia per cell robust z, rep 2 = 0.126; Wolbachia per cell robust z, rep 3 = -7.55; inactive.
After knock-down of Dscam4 (Down syndrome cell adhesion molecule 4) [DRSC10765] the results were Wolbachia per cell robust z, rep 1 = -0.862; Wolbachia per cell robust z, rep 2 = -0.419; Wolbachia per cell robust z, rep 3 = 0.4; inactive.
Knock-down of Dscam4 (Down syndrome cell adhesion molecule 4) [DRSC27460] resulted in: Wolbachia per cell robust z, rep 1 = 0.669; Wolbachia per cell robust z, rep 2 = 0.87; Wolbachia per cell robust z, rep 3 = 0.47; inactive.
salm (spalt major) [DRSC03606] showed Wolbachia per cell robust z, rep 1 = -1.42; Wolbachia per cell robust z, rep 2 = -6.29; Wolbachia per cell robust z, rep 3 = 0.885; inactive.
salm (spalt major) [DRSC29912] gave Wolbachia per cell robust z, rep 1 = 1.02; Wolbachia per cell robust z, rep 2 = 0.116; Wolbachia per cell robust z, rep 3 = 0.255; inactive.
bru3 (bruno 3) [DRSC09280] gave Wolbachia per cell robust z, rep 1 = 0.00231; Wolbachia per cell robust z, rep 2 = -0.599; Wolbachia per cell robust z, rep 3 = -0.237; inactive.
Depletion of bru3 (bruno 3) [DRSC09687] came out at: Wolbachia per cell robust z, rep 1 = -0.0726; Wolbachia per cell robust z, rep 2 = -0.742; Wolbachia per cell robust z, rep 3 = -1.54; inactive.
After knock-down of bru3 (bruno 3) [DRSC09887], the screen gave Wolbachia per cell robust z, rep 1 = 0.501; Wolbachia per cell robust z, rep 2 = -0.871; Wolbachia per cell robust z, rep 3 = -4.84; inactive.
After knock-down of bru3 (bruno 3) [DRSC22732], the record shows Wolbachia per cell robust z, rep 1 = 0.663; Wolbachia per cell robust z, rep 2 = 0.24; Wolbachia per cell robust z, rep 3 = -0.949; inactive.
bru3 (bruno 3) [DRSC28166] gave Wolbachia per cell robust z, rep 1 = -0.234; Wolbachia per cell robust z, rep 2 = -1.31; Wolbachia per cell robust z, rep 3 = -1.76; inactive.
bru3 (bruno 3) [DRSC38591] scored Wolbachia per cell robust z, rep 1 = -0.0252; Wolbachia per cell robust z, rep 2 = 0.702; Wolbachia per cell robust z, rep 3 = -4.34; inactive.
For Ggt-1 (gamma-glutamyl transpeptidase) [DRSC19993], the values are Wolbachia per cell robust z, rep 1 = -5.09; Wolbachia per cell robust z, rep 2 = -1.99; Wolbachia per cell robust z, rep 3 = 0.0167; inactive.
Against Ggt-1 (gamma-glutamyl transpeptidase) [DRSC27144], the values are Wolbachia per cell robust z, rep 1 = 0.268; Wolbachia per cell robust z, rep 2 = 0.185; Wolbachia per cell robust z, rep 3 = 0.912; inactive.
Knock-down of cass (cassowary) [DRSC01850] resulted in: Wolbachia per cell robust z, rep 1 = 1.64; Wolbachia per cell robust z, rep 2 = 0.604; Wolbachia per cell robust z, rep 3 = 0.479; inactive.
Silencing of cass (cassowary) [DRSC29928] came out at: Wolbachia per cell robust z, rep 1 = -3.79; Wolbachia per cell robust z, rep 2 = -1.78; Wolbachia per cell robust z, rep 3 = 0.615; active.
